Pooled drug test results. Numbers come from NIAID ChemDB, via PubChem.

All rows: growth or infection tests; agent: HIV-1; method: p24; read-out: EC50

Neighbouring rows are from separate reports. a–b is a range or a potency band. Blank or dashed fields: not listed here. ECn: concentration that inhibits the pathogen or its effect by n%.

compound | strain | mutations | cell line | value
CCN1c2ncc(CCOc3ccc(/C=C(\C)C(=O)O)c4ccccc34)cc2C(=O)N(C)c2ccc(C)nc21 |  | RT-K103N Y181C | C8166 | <0.1 µM
COc1ccc(-c2c(C)nc3c(N4CC[C@@H](NC(=O)OCc5ccccc5)C4)cc(C)nn23)cc1OC |  |  | H9 | 0.3 µM
CC(C)=CCOc1cc(NC(=S)c2ccsc2C)ccc1Cl | NL4-3 | RT-K103N | CEM + CEM-SS | 0.07 µM
CC(C)C1=C2[C@H]3CC[C@@H]4[C@@]5(C)CC[C@H](OC(=O)C6C[C@@H](C(=O)O)C6(C)C)C(C)(C)[C@@H]5CC[C@@]4(C)[C@]3(C)CC[C@@]2(NC(=O)C(C)(C)NC(=O)c2cccnc2N2CCOCC2)CC1=O | NL4-3 |  | MT-4 | <0.005 µM
COc1ccc(S(=O)(=O)N(CC(C)C)C[C@@H](O)CCN(CC2CCCC2)S(=O)(=O)C2CCCOC2)cc1 | IIIB |  | CEM | <1 µM
CCN1c2ncc(CCOc3ccc(C(=O)NN)cc3C)cc2C(=O)N(C)c2cccnc21 | IIIB |  | C8166 | <0.01 µM
O=C(NCc1ccc(F)cc1)c1nc2n(c(=O)c1O)CN1CCSC21 |  |  | MT-4 | <50 µM
Clc1cc(CN2CCCNCCNCCCNCC2)cc(Cl)n1 | NL4-3 X4 |  | U87-CD4-CCR5 + U87 | 17.6 µM
COc1ccc(-c2c(C)nc3c(N4CC[C@@H](NC(=O)NC(C)C)C4)cc(C)nn23)cc1OC |  |  | H9 | <1 µM
CCN1c2ncc(CCOc3ccc(-c4ccncc4)cc3)cc2C(=O)N(C)c2cccnc21 |  | RT-K103N Y181C | C8166 | 0.01–0.05 µM
O=C(NC(Cc1ccccc1)C(=O)C(=O)C(=O)N(CC1CCCC1)S(=O)(=O)c1ccccc1)O[C@H]1CCOC1 | IIIB |  | CEM | <1 µM
CCN1c2ncc(CCOc3ccc(CC(=O)O)c4c3CCCC4)cc2C(=O)N(C)c2ccc(Cl)nc21 |  | RT-K103N Y181C | C8166 | <0.1 µM
Cc1cccc(NC(=O)NC(C)(C)C(=O)N[C@@]23CC[C@]4(C)[C@H](CC[C@@H]5[C@@]6(C)CC[C@H](OC(=O)C7C[C@@H](C(=O)O)C7(C)C)C(C)(C)[C@@H]6CC[C@]54C)C2=C(C(C)C)C(=O)C3)n1 | NL4-3 |  | MT-4 | <0.005 µM
CC(C)CN(C(=O)C(=O)C(=O)N(CC(C)C)S(=O)(=O)c1ccc(O)cc1)S(=O)(=O)c1ccccc1 | IIIB |  | CEM | <1 µM
CCN1c2ncc(CCOc3ccc(CC(=O)NN)c4ccccc34)cc2C(=O)N(C)c2ccc(Cl)nc21 | WT |  | C8166 | <0.1 µM
Nc1nc(NC2CC2)c2ncn([C@H]3C=C[C@@H](CO)C3)c2n1 | XM-M184V | RT-M184V | MT-4 | <9.5 µM
CCN1c2ncc(CCOc3ccc(C(=O)O)c4c3CCCC4)cc2C(=O)N(C)c2ccc(C)nc21 |  | RT-K103N Y181C | C8166 | <0.1 µM
CS(=O)c1ccc(-c2nc(-c3ccc(F)cc3)c(-c3ccncc3)[nH]2)cc1 | 89.6 |  | PBMC | >1 µM
COc1ccc(-c2c(C)nc3c(N4CC[C@@H](NC(=O)COc5ccccc5)C4)cc(C)nn23)cc1OC |  |  | H9 | 0.2 µM
Nc1ncnc2c1ncn2[C@@H]1C=C(CO)[C@@H](O)[C@H]1O | 18199 unpaired |  | PBMC | 0.01 µM
CCN1c2ncc(CCOc3ccc(Nc4cccc(CC(=O)O)c4)cc3C)cc2C(=O)N(C)c2cccnc21 |  | RT-K103N Y181C | C8166 | <0.01 µM
CC(=O)N[C@@H]1CCN(c2cc(C)nn3c(-c4ccc(CO)cc4)c(C)nc23)C1 |  |  | H9 | 0.4 µM
CC(C)[C@H](NC(=O)OCc1ccccn1)C(=O)N[C@@H](Cc1ccccc1)[C@@H](O)C[C@H](Cc1ccccc1)NC(=O)OCc1cccnc1 | NL4-3 | PR-L10R | MT-4 | <0.8 µM
Cc1cnc(C(=O)NC(C)(C)C(=O)N[C@@]23CC[C@]4(C)[C@H](CC[C@@H]5[C@@]6(C)CC[C@H](OC(=O)C7C[C@@H](C(=O)O)C7(C)C)C(C)(C)[C@@H]6CC[C@]54C)C2=C(C(C)C)C(=O)C3)cn1 | NL4-3 | V7A | MT-4 | <0.01 µM
CNC(=O)CN1CCn2c(nc(C(=O)NCc3ccc(F)cc3)c(O)c2=O)C1(C)C |  |  | MT-4 | <1 µM
CC(=O)N[C@@H]1CCN(c2ccnn3cc(C)nc23)C1 |  |  | H9 | >10 µM
Cc1ccc(-c2ccc3c(c2)C=C(C(=O)Nc2ccc(C[N+](C)(C)C4CCOCC4)cc2)CCC3)cc1 | Du422 CLADE C |  | PBMC | <1 µM
CCN1c2ncc(CCOc3ccc(NS(=O)(=O)C(F)(F)F)c4ccccc34)cc2C(=O)N(C)c2ccc(F)nc21 |  | RT-V106A | C8166 | 0.1–1 µM
COc1ccc(S(=O)(=O)N(CC(C)C)CC(O)CN2CCN(Cc3cccnc3)C[C@H]2C(=O)NC(C)(C)C)cc1 | IIIB |  | CEM | <1 µM
CN(C)C(=O)C(=O)N1CCn2c(nc(C(=O)NCc3ccc(F)cc3)c(O)c2=O)C1 |  |  | MT-4 | <50 µM
Cc1ccc(C)n1-c1ccc(C(=O)O)c(O)c1 | RU570 R5 CLADE G |  | PBMC + MT-2 | 98 µM
CC1(C)c2nc(C(=O)NCc3ccc(F)cc3)c(O)c(=O)n2CCN1CC(N)=O |  |  | MT-4 | <1 µM
Nc1nccc2c1ncn2[C@@H]1O[C@H](CO)[C@@H](O)[C@H]1O | A012 POST-AZT |  | PBMC | 0.11 µM
CCN1c2ncc(CCOc3ccc(-c4nccn4C)cc3C)cc2C(=O)N(C)c2cccnc21 |  | RT-K103N Y181C | C8166 | 0.01–0.05 µM
COc1ccc(-c2c(C)nc3c(N4CCC(NC(C)=O)CC4)cc(C)nn23)cc1OC |  |  | H9 | 1 µM
O=C(c1ccccc1)N(CCc1ccccc1)C[C@H](O)CN(CC1CCCC1)S(=O)(=O)c1cccnc1 | IIIB |  | CEM | <1 µM
Nc1nc(=O)n([C@H]2C=C[C@@H](CO)O2)cc1F | XM-AZT-resistant | RT-M41L D67N K70R T215Y K219Q | PBMC | <1.1 µM
CC(C)CN(C[C@@H](O)[C@H](Cc1ccccc1)NC(=O)O[C@H]1CO[C@H]2OCC[C@H]21)S(=O)(=O)c1ccc2c(c1)OCO2 | NL4-3 (NFV5) | L10F/K20T/D30N/K45I/A71B/V77I | MT-4 | 0.0024 µM
CC(C)C1=C2[C@H]3CC[C@@H]4[C@@]5(C)CC[C@H](OC(=O)C6C[C@@H](C(=O)O)C6(C)C)C(C)(C)[C@@H]5CC[C@@]4(C)[C@]3(C)CC[C@@]2(NC(=O)C(C)(C)NC(=O)c2nccn2C)CC1=O | NL4-3 |  | MT-4 | 0.00501–0.01 µM
CCN1c2ncc(CCOc3ccc(/C=C(\C)C(=O)O)c4ccccc34)cc2C(=O)Nc2c(C)cc(Cl)nc21 | WT |  | C8166 | <0.1 µM
Cc1cc(CNC(=O)c2nc3n(c(=O)c2O)CCN(C2CC2)CC3N(C)C(=O)C(=O)N(C)C)ccc1F |  |  | MT-4 | <1 µM
COc1ccc(-c2c(C)nn3c(N4CC[C@@H](NC(C)=O)C4)cc(C)nc23)cc1OC | RF |  | H9 | >100 µM
CCN1c2ncc(CCOc3ccc(C(=O)Nc4cccn(CC(=O)O)c4=O)cc3C)cc2C(=O)N(C)c2cccnc21 |  | RT-K103N Y181C | C8166 | >0.05 µM
CC(C)(C)c1cc(CS(=O)(=O)N(CC2CCCC2)C[C@@H](O)CN(CCc2ccccc2)C(=O)c2ccccc2)no1 | IIIB |  | CEM | <1 µM
CCN1c2ncc(CCOc3ccc(C(=O)N(C)c4ccc(C(=O)O)cc4)cc3C)cc2C(=O)N(C)c2cccnc21 |  | RT-K103N Y181C | C8166 | 0.01–0.05 µM
Cc1noc(CN2CCn3c(nc(C(=O)NCc4ccc(F)cc4)c(O)c3=O)C2(C)C)n1 |  |  | MT-4 | <1 µM

A second listing of 3 rows from above:

compound	strain	mutations	cell line	value
CCN1c2ncc(CCOc3ccc(/C=C(\C)C(=O)O)c4ccccc34)cc2C(=O)N(C)c2ccc(C)nc21		RT-K103N Y181C	C8166	<0.1 µM
COc1ccc(-c2c(C)nc3c(N4CC[C@@H](NC(=O)COc5ccccc5)C4)cc(C)nn23)cc1OC			H9	0.2 µM
CCN1c2ncc(CCOc3ccc(C(=O)Nc4cccn(CC(=O)O)c4=O)cc3C)cc2C(=O)N(C)c2cccnc21		RT-K103N Y181C	C8166	>0.05 µM